# Biological target: Major prion protein (Mesocricetus auratus) (UniProt P04273)
# Sequences of proteins named here, by UniProt entry; tags and fusion partners are left off.
# UniProt P04273, whole entry: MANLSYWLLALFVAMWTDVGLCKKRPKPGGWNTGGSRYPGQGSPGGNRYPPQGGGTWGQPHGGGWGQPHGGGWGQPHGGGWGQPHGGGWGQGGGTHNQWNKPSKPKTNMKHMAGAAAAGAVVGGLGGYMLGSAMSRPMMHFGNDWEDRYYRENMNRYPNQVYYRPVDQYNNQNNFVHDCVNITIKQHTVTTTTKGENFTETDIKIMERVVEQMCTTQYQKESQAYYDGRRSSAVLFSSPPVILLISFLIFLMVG
# Test: Binding affinity to Syrian hamster PrPC assessed as inhibition of PrPC protein conversion to PrPSc by measuring PrPSc level relative to untreated control
# Design: concentration or dose not given beside the values
structure (smiles),measurement,value
O=C(CSc1ncnc2sc3c(c12)CCC3)NCC1CCCO1 (stereo unspecified),Activity,93.7%
